Reference: patent US20120164142A1

Legend:
[1] = biological target: human natriuretic peptide receptor A (NPR-A) (human) (UniProt P16066); assay: cell-based or functional assay
[2] = biological target: human natriuretic peptide receptor B (NPR-B) (human) (UniProt P20594); assay: cell-based or functional assay

With CDNP (peptide; modification not given) the EC50 on NPR-A (nM), whole cell cGMP assay [1] was 73 nM, the EC50 on NPR-B (nM), whole cell cGMP assay [2] was 25 nM and the efficacy relative to CNP22, NPR-B membrane assay (first set) (% of CNP22 efficacy) [2] was 56. The potency relative to CNP22, NPR-B membrane assay (first set) (fold less potent than CNP22) [2] was 5.5 and the selectivity for NPR-B over NPR-A (EC50 ratio) [2] was 3 fold.
